These results are taken from patent US20040048237A1 (priority 2002, published 2004).

The test system of one test is PrP. The test is described as follows: Proteinase K digestion of cell lysates, immunoblot of 21 kDa PK-resistant PrPSc-like fragment. The note with it: 16 hours.
For a further test, the system named is MoPrP cells. The note with it: within 12 hrs of proteasome inhibitor (MG132) treatment.

Take epoxomicin: the “yield of 21 kDa PK-resistant fragment” value with PrP (5 μM epoxomicin compared with 1 μM epoxomicin) is recorded as “much more of the 21 kDa PK-resistant fragment”. As for `CC(C)C[C@@H](C=O)NC(=O)[C@H](CC(C)C)NC(=O)[C@H](CC(C)C)NC(=O)OCc1ccccc1` [MG132], the cells died entry with MoPrP cells was “less than 5%”. For the same compound, in the test with PrP (50 μM MG132 compared with 10 μM Lactacystin), the “yield of 21 kDa PK-resistant band” value is on record as “much more of the 21 kDa PK-resistant band”.
